# Protein sequences can lack the tags named with them.
# Target: T1, CueR (Pseudomonas aeruginosa PAO1) (UniProt Q9HV30)
# T1 sequence (looked up): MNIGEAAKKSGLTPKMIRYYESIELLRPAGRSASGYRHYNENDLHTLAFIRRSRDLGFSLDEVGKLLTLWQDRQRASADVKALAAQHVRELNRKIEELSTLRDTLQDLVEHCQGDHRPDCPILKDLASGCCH
# Assay: EMSA
# Conditions: recombinant protein; residues 1-132; label: none (SYBR Gold stain); probe letters rebuilt from the primers and the genome
sequence,measurement,value
CTGCGACTCCCGCCGTCTTGAATGAAGACCACCGCGTAGCGGGCCGGATGGCCGCTCGCGCCGGGTCATGCCGAAAAGAAGAATGCGCCTGTCGTTATACGCCCCAGGCACGGGGAACGAAATGATCGCACAAGGGCGGCTGGCTCTTCTGCGGCATGGGGCCGCAGAATTTTCCGTTGCGGAGAGCGTGCCGGCGGCGCAATCGAGGACAAGCTTTCACCGCAGAGAAAGAATAAAAACCCACAAAAGCCGCACAAATGGGAAATTCTACTAATTTTCCTTTAATGCTTGCCATTCAAATGCAGTCTCACTAGTGTGGTACGCATGAAAACACCACACACCCTCATCCTGCTCCGCCAACACGCCTGCCT (double strand) [oprC promoter],binding result,binds

# From publication PMC6907878
